# Results published in patent US20030198617A1, “Pharmaceutical tryptophan containing dipeptide compositions and methods of use thereof” (priority 1993, published 2003).
# Tested on: Mycobacterium tuberculosis
# Conditions: 50-100 μg on alternate days
substance,measurement,value
Glu-Trp [IM862],"tolerance, allergic reactions and other complications",well-tolerated
